Results on nine molecules are retold here after paper PMC6521205 (Viruses, 2019).

Data set [1] relates to ZIKV PRVABC59/Human/2015/Puerto Rico. Nature of the data set: CellTiter-Glo activity assay, ZIKV PRVABC59-infected neural stem cells. The class given is cell-based, Zika virus. As to conditions: selectivity index: CC50/EC50, PRVABC59 strain. On the technique in general: In ATP-based viability assays light output follows the ATP content of the culture.
For data set [2], the system named is ZIKV H/PAN/2016/BEI-259634. As to the kind of experiment: CellTiter-Glo activity assay, ZIKV H/PAN-infected neural stem cells. The format is cell-based, Zika virus. As to conditions: selectivity index: CC50/EC50, H/PAN strain.
Setting [3] is: listed as 2′-C-ethynyluridine aryloxyl phosphoramidate ProTide.
[4] abbreviates: listed as 2′-C-methyladenosine aryloxyl phosphoramidate ProTide.
Where [5] appears, read: listed as 2′-C-methyluridine aryloxyl phosphoramidate ProTide.

In the case of `C#CC1(O)C(O)C(COP(=O)(NC(C)C(=O)OC(C)C)Oc2ccccc2)OC1n1ccc(=O)[nH]c1=O` (stereo not shown) [2′-C-Ethynyluridine Aryloxy Phosphoramidate], the “SI PRVABC59 ZIKV” value in data set [1] and in data set [1] (setting [3]) was over 166 each time. The “SI H/PAN ZIKV” value in data set [2] and in data set [2] (setting [3]) was over 62 each time.
Turning to `CC(C)OC(=O)C(C)NP(=O)(OCC1OC(n2cnc3c(N)ncnc32)C(C)(O)C1O)Oc1ccccc1` (stereo not shown) [2′-C-Methyladenosine aryloxyl phosphoramidate], the “SI PRVABC59 ZIKV” value in data set [1] and in data set [1] (setting [4]) was over 4 each time. For the same molecule, the “SI H/PAN ZIKV” value in data set [2] and in data set [2] (setting [4]) was over 2 in each case.
In the case of `CC(C)OC(=O)C(C)NP(=O)(OCC1OC(n2ccc(=O)[nH]c2=O)C(C)(O)C1O)Oc1ccccc1` (stereo not shown) [2′-C-methyluridine aryloxyl phosphoramidate], the “SI PRVABC59 ZIKV” value in data set [1] (setting [5]) is recorded as over 47. Also, the “SI H/PAN ZIKV” value in data set [2] and in data set [2] (setting [5]) was over 23 in each case.
As for `COC1C(O)C(COP(=O)(NC(C)C(=O)OC(C)C)Oc2ccccc2)OC1n1ccc(N)nc1=O` (stereo not shown) [2′-O-Methylcytidine aryloxyl phosphoramidate], the “SI PRVABC59 ZIKV” value in data set [1] is over 1. The “SI H/PAN ZIKV” value in data set [2] is recorded as over 1.
For `CC(C)OC(=O)C(C)NP(=O)(OCC1CC(O)C(n2cnc3c(N)ncnc32)O1)Oc1ccccc1` (stereo not shown) [3′-Deoxyadenosine aryloxyl phosphoramidate], in data set [1], the “SI PRVABC59 ZIKV” value is on record as over 1. In addition, the “SI H/PAN ZIKV” value in data set [2] is reported as over 1.
For `CC(C)OC(=O)C(C)NP(=O)(OCC1CC(O)C(n2ccc(N)nc2=O)O1)Oc1ccccc1` (stereo not shown) [3′-Deoxycytidine aryloxyl phosphoramidate], in data set [1], the “SI PRVABC59 ZIKV” value is reported as over 1. In addition, the “SI H/PAN ZIKV” value in data set [2] is recorded as over 1.
Consider `COC1C(COP(=O)(NC(C)C(=O)OC(C)C)Oc2ccccc2)OC(n2ccc(=O)[nH]c2=O)C1O` (stereo not shown) [3′-O-Methyluridine aryloxyl phosphoramidate], for which, in data set [1], the “SI PRVABC59 ZIKV” value is over 1. In addition, in data set [2], the “SI H/PAN ZIKV” value is reported as over 1.
Regarding `CSCCOP(=O)(NCCc1c[nH]c2ccccc12)OCC1OC(n2ccc(=O)[nH]c2=O)C(C)(O)C1O` (stereo not shown) [(5-(2,4-dioxo-3,4-dihydropyrimidin-1(2H)-yl)-3,4-dihydroxy-4-methyltetrahydrofuran-2-yl)methyl (2-(methylthio)ethyl) (2-(1H-indol-3-yl)ethyl)phosphoramidate], the “SI PRVABC59 ZIKV” value in data set [1] was over 1. In data set [2], the “SI H/PAN ZIKV” value is on record as over 1.
As for `CC(C)OC(=O)[C@H](C)N[P@](=O)(OC[C@H]1O[C@@H](n2ccc(=O)[nH]c2=O)[C@](C)(F)[C@@H]1O)Oc1ccccc1` [Sofosbuvir, reference compound], the “SI PRVABC59 ZIKV” value in data set [1] and in data set [1] (listed as sofosbuvir) was over 1.4 each time. Also, the “SI H/PAN ZIKV” value in data set [2] and in data set [2] (listed as sofosbuvir) was over 1.1 each time.
